Anti-infective test results gathered from many reports (values: NIAID ChemDB through PubChem).

Shared fields: growth or infection tests

Blank or dashed fields: not listed here. Lines come from different laboratories, so protocols vary. MIC50, MIC90 and the like: level of inhibition, or share of isolates inhibited.

smiles,method,organism,endpoint,strain or isolate,changes,result
CO[C@@]1(NC(=O)Cn2cnnn2)C(=O)N2C(C(=O)O)=C(CSc3nnc(C)s3)CSC21,-,Mycobacterium fortuitum,MIC,1260,-,50 µg/mL
CCCCN(C(=O)Nc1ccc(F)cc1)[C@@H](CC(=O)OCC)C1O[C@@H]2OC(C)(C)O[C@@H]2[C@H]1Oc1ccccc1,-,Mycobacterium aurum,MIC,-,-,>25 µg/mL
CC[C@H]1OC(=O)[C@H](C)[C@@H](OC2C[C@@](C)(OC)[C@@H](O)[C@H](C)O2)[C@H](C)[C@@H](O[C@@H]2O[C@H](C)C[C@H](N(C)C)[C@H]2O)C(C)(O)C[C@@H](C)/C(=N\OCCc2ccccc2)[C@H](C)[C@@H](O)[C@]1(C)O,-,Mycobacterium avium complex,MIC,20039 (clarithromycin-susceptible),-,1.56 µg/mL
CC(C)(C)c1ccccc1OCCCON1C(N)=NC(N)=NC1(C)C,fluorescence,Mycobacterium bovis BCG,MIC,-,DHFR-overexpressing,>28.8 µM
CCCCCCO/N=C1\[C@H](C)CC(C)(O)[C@H](O[C@@H]2O[C@H](C)C[C@H](N(C)C)[C@H]2O)[C@@H](C)[C@H](O[C@H]2C[C@@](C)(OC)[C@@H](OC(C)=O)[C@H](C)O2)[C@@H](C)C(=O)O[C@H](CC)[C@@](C)(O)[C@H](O)[C@H]1C,-,Mycobacterium avium complex,MIC,20096 (clarithromycin-resistant),-,3.13 µg/mL
CCCCCCCC/C=C\CCCCCCCCN(C(=O)NCc1ccccc1)[C@@H](CC(=O)OCC)C1O[C@@H]2OC(C)(C)O[C@@H]2[C@H]1Oc1ccccc1,-,Mycobacterium aurum,MIC,-,-,>25 µg/mL
C[C@@H](O)[C@H]1C(=O)N2C(C(=O)O)=C(SCCN=CN)C[C@H]12,-,Mycobacterium fortuitum,MIC,1260,-,1.56 µg/mL
CO[C@H]1/C=C/O[C@@]2(C)Oc3c(C)c(O)c4c(O)c(c(/C=N/N5CCN(C6CCCC6)CC5)c(O)c4c3C2=O)NC(=O)/C(C)=C\C=C\[C@H](C)[C@H](O)[C@@H](C)[C@@H](O)[C@@H](C)[C@H](OC(C)=O)[C@@H]1C,-,Mycobacterium avium intracellulare,MIC,119,-,0.5 µg/mL
C=C1C(=O)O[C@@H](CCCCCCCCCCCCC)[C@@H]1C(=O)O,-,Mycobacterium aurum,MIC,-,-,250 µg/mL
CO[C@H]1/C=C/O[C@@]2(C)Oc3c(C)c(O)c4c(=O)c(c5oc6cc(N7CCN(CC(C)C)CC7)cc(=O)c6nc5c4c3=C2O)NC(=O)/C(C)=C\C=C\[C@H](C)[C@H](O)[C@@H](C)[C@@H](O)[C@@H](C)[C@H](OC(C)=O)[C@@H]1C,-,Mycobacterium avium complex,MIC,N-980 (HIV+),-,0.05 µg/mL
CO[C@@]1(NC(=O)Cc2ccccc2)C(=O)N2C(C(=O)O)=C(COC(C)=O)CSC21,-,Mycobacterium fortuitum,MIC,1260,-,50 µg/mL
C[C@@H]1CN(c2c(F)c(N)c3c(=O)c(C(=O)O)cn(C4CC4)c3c2F)C[C@H](C)N1,broth dilution / visual reading,Mycobacterium szulgai,MIC,NCTC10831,-,0.4 µg/mL
CC[C@H]1OC(=O)[C@H](C)[C@@H](O[C@H]2C[C@@](C)(OC)[C@@H](O)[C@H](C)O2)[C@H](C)[C@@H](O[C@@H]2O[C@H](C)C[C@H](N(C)C)[C@H]2O)[C@](C)(OC)C[C@@H](C)C(=O)[C@H](C)[C@@H](O)[C@]1(C)O,-,Mycobacterium avium complex,MIC,N-961 (HIV+),-,4 µg/mL
CC[C@H]1OC(=O)[C@H](C)[C@@H](O[C@H]2C[C@@](C)(OC)[C@@H](OC(C)=O)[C@H](C)O2)[C@H](C)[C@@H](O[C@@H]2O[C@H](C)C[C@H](N(C)C)[C@H]2O)C(C)(O)C[C@@H](C)/C(=N\OCCOc2ccccc2)[C@H](C)[C@@H](O)[C@]1(C)O,-,Mycobacterium avium complex,MIC,20096 (clarithromycin-resistant),-,3.13 µg/mL
CCc1nc2ccc(Cl)cn2c1C(=O)NCc1ccc(N2CCSCC2)c(F)c1,resazurin,Mycobacterium intracellulare,MIC,-,-,<2 µM
NNC(=O)c1ccncc1,fluorescence,Mycobacterium bovis BCG,MIC,-,Thymidylate synthase (thyA) overexpressing,0.7 µM
CO[C@@]1(NC(=O)C2SC(=C(C(N)=O)C(=O)[O-])S2)C(=O)N2C(C(=O)[O-])=C(CSc3nnnn3C)CS[C@@H]21,-,Mycobacterium fortuitum,MIC,914-8,-,25 µg/mL
Cc1cn2c(C(=O)NCc3ccc(N4CCN(c5ccc(C(F)(F)F)cn5)CC4)c(F)c3)c(C)nc2s1,resazurin,Mycobacterium intracellulare,MIC,-,-,<2 µM
NNC(=O)c1ccncc1,-,Mycobacterium avium complex,MIC,N-981 (HIV+),-,2 µg/mL
Cc1ccn2c(C(=O)NCc3ccc(N4CCN(c5ccc(C(F)(F)F)cc5)CC4)c(F)c3)c(C)nc2c1,resazurin,Mycobacterium intracellulare,MIC,-,-,<2 µM
CCCCCCCCO/N=C1\[C@H](C)CC(C)(O)[C@H](O[C@@H]2O[C@H](C)C[C@H](N(C)C)[C@H]2O)[C@@H](C)[C@H](OC2C[C@@](C)(OC)[C@@H](O)[C@H](C)O2)[C@@H](C)C(=O)O[C@H](CC)[C@@](C)(O)[C@H](O)[C@H]1C,-,Mycobacterium avium complex,MIC,20092 (clarithromycin-resistant),-,25 µg/mL
C[C@@H]1CN(c2c(F)c(N)c3c(=O)c(C(=O)O)cn(C4CC4)c3c2F)C[C@H](C)N1,-,Mycobacterium avium complex,MIC,N-314 (HIV-),-,0.5 µg/mL
CCCCCCCCCCCCCCO/N=C1\[C@H](C)CC(C)(O)[C@H](O[C@@H]2O[C@H](C)C[C@H](N(C)C)[C@H]2O)[C@@H](C)[C@H](OC2C[C@@](C)(OC)[C@@H](O)[C@H](C)O2)[C@@H](C)C(=O)O[C@H](CC)[C@@](C)(O)[C@H](O)[C@H]1C,-,Mycobacterium avium complex,MIC,20096 (clarithromycin-resistant),-,>50 µg/mL
CC1(C)OC2OC([C@@H]3CC(=O)N(c4ccc(Cl)cc4)C(=O)N3C3CC3)[C@H](Oc3ccccc3)C2O1,-,Mycobacterium aurum,MIC,-,-,>25 µg/mL
Cc1cc(O)c(C=O)c2c1C(=O)Oc1c(CO)c(O)c3c(c1O2)C(O)OC3=O,-,Mycobacterium aurum,MIC,-,-,250 µg/mL
NCC[C@H](O)C(=O)N[C@@H]1C[C@H](N)[C@@H](O[C@H]2O[C@H](CN)[C@@H](O)[C@H](O)[C@H]2O)[C@H](O)[C@H]1O[C@H]1O[C@H](CO)[C@@H](O)[C@H](N)[C@H]1O,broth dilution,Mycobacterium bolletii,MIC50,-,-,8 µg/mL
CC[C@H]1OC(=O)[C@H](C)[C@@H](OC2C[C@@](C)(OC)[C@@H](OC(=O)C(C)C)[C@H](C)O2)[C@H](C)[C@@H](O[C@@H]2O[C@H](C)C[C@H](N(C)C)[C@H]2O)C(C)(O)C[C@@H](C)/C(=N\OCCCOc2ccccc2)[C@H](C)[C@@H](O)[C@]1(C)O,-,Mycobacterium avium complex,MIC,20096 (clarithromycin-resistant),-,0.78 µg/mL
C[C@H]1c2cccc(O)c2C(O)=C2C(=O)[C@]3(O)C(O)=C(C(N)=O)C(=O)[C@@H](N(C)C)[C@@H]3[C@@H](O)[C@@H]21,-,Mycoplasma hominis,MIC50,20 strains,-,0.02 µg/mL
CCCCCCCCNNC(=O)O[C@H]1[C@H](O[C@@H]2[C@@H](C)[C@H](O[C@H]3C[C@@](C)(OC)[C@@H](OC(C)=O)[C@H](C)O3)[C@@H](C)C(=O)O[C@H](CC)[C@@](C)(O)[C@H](O)[C@@H](C)/C(=N/OCCCC3CCCCC3)[C@H](C)CC2(C)O)O[C@H](C)C[C@@H]1N(C)C,-,Mycobacterium avium intracellulare,MIC,20066 (clarithromycin-susceptible),-,6.25 µg/mL
Cc1ccn2c(C(=O)NCc3ccc(N4CCN(c5ccc(C(F)(F)F)cn5)CC4)c(F)c3)c(C)nc2c1,resazurin,Mycobacterium intracellulare,MIC,-,-,<2 µM
CCCCO/N=C1\[C@H](C)CC(C)(O)[C@H](O[C@@H]2O[C@H](C)C[C@H](N(C)C)[C@H]2O)[C@@H](C)[C@H](OC2C[C@@](C)(OC)[C@@H](O)[C@H](C)O2)[C@@H](C)C(=O)O[C@H](CC)[C@@](C)(O)[C@H](O)[C@H]1C,-,Mycobacterium avium intracellulare,MIC,20066 (clarithromycin-susceptible),-,1.56 µg/mL
CO[C@@]1(NC(=O)CCCC(N)C(=O)O)C(=O)N2C(C(=O)O)=C(COC(N)=O)CSC21,-,Mycobacterium fortuitum,MIC,1049,-,>100 µg/mL
CC[C@H]1OC(=O)[C@H](C)[C@@H](OC2C[C@@](C)(OC)[C@@H](O)[C@H](C)O2)[C@H](C)[C@@H](O[C@@H]2O[C@H](C)C[C@H](N(C)C)[C@H]2O)C(C)(O)C[C@@H](C)/C(=N\OCCCC2CCCCC2)[C@H](C)[C@@H](O)[C@]1(C)O,-,Mycobacterium avium intracellulare,MIC,20066 (clarithromycin-susceptible),-,6.25 µg/mL
CCCCCCCC/C=C\CCCCCCCCN1C(=O)N(c2ccccc2)C(=O)C[C@H]1C1OC2OC(C)(C)OC2[C@H]1OC,-,Mycobacterium aurum,MIC,-,-,>25 µg/mL

The last 5 rows once more:

smiles | method | organism | endpoint | strain or isolate | changes | result
Cc1ccn2c(C(=O)NCc3ccc(N4CCN(c5ccc(C(F)(F)F)cn5)CC4)c(F)c3)c(C)nc2c1 | resazurin | Mycobacterium intracellulare | MIC | - | - | <2 µM
CCCCO/N=C1\[C@H](C)CC(C)(O)[C@H](O[C@@H]2O[C@H](C)C[C@H](N(C)C)[C@H]2O)[C@@H](C)[C@H](OC2C[C@@](C)(OC)[C@@H](O)[C@H](C)O2)[C@@H](C)C(=O)O[C@H](CC)[C@@](C)(O)[C@H](O)[C@H]1C | - | Mycobacterium avium intracellulare | MIC | 20066 (clarithromycin-susceptible) | - | 1.56 µg/mL
CO[C@@]1(NC(=O)CCCC(N)C(=O)O)C(=O)N2C(C(=O)O)=C(COC(N)=O)CSC21 | - | Mycobacterium fortuitum | MIC | 1049 | - | >100 µg/mL
CC[C@H]1OC(=O)[C@H](C)[C@@H](OC2C[C@@](C)(OC)[C@@H](O)[C@H](C)O2)[C@H](C)[C@@H](O[C@@H]2O[C@H](C)C[C@H](N(C)C)[C@H]2O)C(C)(O)C[C@@H](C)/C(=N\OCCCC2CCCCC2)[C@H](C)[C@@H](O)[C@]1(C)O | - | Mycobacterium avium intracellulare | MIC | 20066 (clarithromycin-susceptible) | - | 6.25 µg/mL
CCCCCCCC/C=C\CCCCCCCCN1C(=O)N(c2ccccc2)C(=O)C[C@H]1C1OC2OC(C)(C)OC2[C@H]1OC | - | Mycobacterium aurum | MIC | - | - | >25 µg/mL